Assay results published in publication PMC8238200, “NleB2 from enteropathogenic Escherichia coli is a novel arginine-glucose transferase effector” (2021).

Molecular target: NleB1 (Escherichia coli, UniProt B7UI21)
Test: UDP-Glo assay (UDP release, luminescence), Michaelis-Menten fit
Details: acceptor 1 μM MBP-RIPK1DD (human death domain); 150 nM enzyme; pH 7.4, 10 mM MgCl2, 1 mM MnCl2, 30 °C, 30 min

Which Km does the source give for CC(=O)N[C@H]1[C@@H](OP(=O)(O)OP(=O)(O)OC[C@H]2O[C@@H](n3ccc(=O)[nH]c3=O)[C@H](O)[C@@H]2O)O[C@H](CO)[C@@H](O)[C@@H]1O here?
The Km was “while the reverse was true for NleB2S252G and NleB1”.
